Anti-infective test results gathered from many reports (values: NIAID ChemDB through PubChem).

All rows: whole-cell or culture tests; organism: HIV-1

Neighbouring rows are from separate reports. ECn is the concentration giving n% inhibition of infection, replication or growth. An empty or dashed field is not shown.

Cc1cc(C)cc(Cn2c(=O)ccn(CC#N)c2=O)c1 ; strain: IIIB ; cell line: PBMC ; read-out: EC50 ; result: 0.59 µM
Cc1cc(C)c(-n2nnnc2SCC(=O)Nc2ccccc2Br)c(C)c1 ; cell line: MT-4 ; read-out: EC50 ; method: p24 ; setting: 50% human serum ; result: <0.81 µM
C=CCN(C(=O)NCc1ccc(C(F)(F)F)cc1)C1C[C@H]2CC[C@@H](C1)N2C[C@H]1CN(C(=O)C2CCCC2)C[C@]1(O)c1cccc(F)c1 ; cell line: PBMC ; read-out: EC50 ; method: p24 ; result: <0.005 µM
Cc1cc(C)cc(Cn2c(=O)ccn(Cc3ccccc3)c2=O)c1 ; strain: IIIB ; cell line: PBMC ; read-out: EC50 ; result: 0.234 µM
C=CCN(C(=O)NCc1ccc(F)cc1)C1CCN([C@H]2CN(C(=O)C3CCCC3)C[C@]2(O)c2ccccc2)CC1 ; cell line: PBMC ; read-out: EC50 ; method: p24 / ELISA ; result: <50 µM
Cc1cc(C)cc(Cn2c(=S)ccn(CC#N)c2=O)c1 ; strain: IIIB ; cell line: PBMC ; read-out: EC50 ; result: 0.049 µM
Nc1nc2c(ncn2[C@H]2C=C[C@@H](CO)O2)c(=O)o1 ; strain: IIIB ; cell line: CEM ; read-out: EC50 ; method: RT activity ; result: 11 µg/mL
Nc1ncnc2c1ncn2[C@@H]1CC(CO)(CO)CO1 ; cell line: MT-4 ; read-out: EC50 ; result: 20.1 µg/mL
Cc1cn([C@H]2C=C[C@@H](CO)O2)c(=O)[nH]c1=O ; strain: IIIB ; cell line: MT-4 ; read-out: EC90 ; method: cytopathic effect / p24 / trypan blue ; result: 2.7 µM
Cc1cc(C)c(CN2CCC(Nc3nc(Nc4c(C)cc(C)cc4C)c4[nH]cnc4n3)CC2)c(C)c1 ; strain: IIIB ; cell line: MT-4 ; read-out: EC50 ; method: MTT ; result: >4.8 µM
CCNc1cccnc1N1CCN(C(=O)c2cc3cc(OC)ccc3[nH]2)CC1 ; strain: BaL ; cell line: PBMC ; read-out: EC50 ; method: p24 ; mutations: RT-V106A ; result: 15.3 µM
Cc1cn([C@@H]2CC(CO)(CO)CO2)c(=O)[nH]c1=O ; cell line: MT-4 ; read-out: EC50 ; result: 51 µg/mL
COc1ccccc1N1CCN(c2c(F)cc3c(=O)c(C(=O)O)cn(C4CC4)c3c2OC(F)F)CC1 ; strain: IIIB ; cell line: MOLT-4 ; read-out: EC50 ; method: cytopathic effect / MTT ; result: 0.091 µM
Cc1cc(C)c(-n2nnnc2SCC(=O)Nc2ccc(Cl)cc2[N+](=O)[O-])c(C)c1 ; cell line: MT-4 ; read-out: EC50 ; method: p24 ; setting: 10% FBS ; result: <0.031 µM
C[C@@](O)(/C=C/[C@H]1CC=CC(=O)O1)[C@@H](C[C@@H](O)\C=C/C=C\C=C\CO)OP(=O)(O)O ; strain: RF ; cell line: CEM + CEM-SS ; read-out: EC50 ; method: cytopathic effect / XTT ; result: >18 µM
O=C(CSc1nnnn1-c1cc(Cl)ccc1Cl)Nc1ccccc1[N+](=O)[O-] ; cell line: MT-4 ; read-out: EC50 ; method: p24 ; setting: 50% human serum ; result: <1.25 µM
CCO/N=C(\c1ccc(Br)cc1)C1CCN(C2(C)CCN(C(=O)c3c(C)cc[n+]([O-])c3C)CC2)CC1 ; strain: RU570 Clinical isolates ; cell line: PBMC ; read-out: EC50 ; result: <0.4 µM
CC(C)CN(C[C@@H](O)[C@H](Cc1ccccc1)NC(=O)O[C@H]1CCOC1)S(=O)(=O)c1ccc(N)cc1 ; strain: IIIB ; cell line: MT-4 ; read-out: EC50 ; method: cytopathic effect / MTT ; result: 0.054 µM
C1CNCCNCCCN(CCCN2CCCNCCNCCCNCC2)CCNC1 ; strain: NL4-3 ; cell line: MT-4 ; read-out: EC50 ; method: p24 ; mutations: gp120 F145L N269E Q278H I288V N293D FNSTW364-368 deletion ; result: >25 µg/mL
C=C(C)[C@@H]1CC[C@]2(C(=O)OC)CC[C@]3(C)[C@H](CC[C@@H]4[C@@]5(C)C[C@@H](F)[C@H](OC(=O)CC(C)(C)C(=O)O)C(C)(C)[C@@H]5CC[C@]43C)[C@@H]12 ; strain: NL4-3 ; cell line: MT-4 ; read-out: EC50 ; method: p24 / ELISA ; result: >16 µM
N#CCn1ccc(=O)n(Cc2ccc3ccccc3c2)c1=O ; strain: IIIB ; cell line: PBMC ; read-out: EC50 ; result: 36.7 µM
Cc1cn([C@H]2C[C@H](N=[N+]=[N-])[C@@H](COC(=O)N3CCOCC3)O2)c(=O)[nH]c1=O ; strain: 899A ; cell line: MT-4 ; read-out: EC50 ; method: p24 / antigen / absorbance ; result: 35 µM
Cc1ncnc(C)c1C(=O)N1CCC(C)(N2CCN([C@@H](Cc3ccccc3)c3ccc(C(F)(F)F)cc3)[C@@H](C)C2)CC1 ; strain: JRFL Clinical isolates ; cell line: PBMC ; read-out: EC50 ; result: <0.00019 µM
C=CCN(C(=O)OCc1ccc2nonc2c1)C1CCN(C[C@H]2CN(C(=O)C3CCCC3)C[C@]2(O)c2ccccc2)CC1 ; cell line: PBMC ; read-out: EC50 ; method: p24 ; result: <0.005 µM
Cc1cn([C@H]2C[C@H](N=[N+]=[N-])[C@@H](COP(=O)(O)O)O2)c(=O)[nH]c1=O ; strain: 899A ; cell line: MT-4 ; read-out: EC50 ; method: p24 / antigen / absorbance ; result: 0.29 µM
COc1cc(Cn2c(=O)ccn(CC#N)c2=O)cc(OC)c1OC ; strain: IIIB ; cell line: PBMC ; read-out: EC50 ; result: >377 µM
Cc1cc(C)c(-n2nnnc2SCC(=O)Nc2ccc(S(N)(=O)=O)cc2C)c(C)c1 ; cell line: MT-4 ; read-out: EC50 ; method: p24 ; setting: 10% FBS ; result: <0.05 µM
CCC[C@@]1(CCc2ccccc2)CC(O)=C([C@H](CC)c2cccc(NS(=O)(=O)c3ccc(C(F)(F)F)cn3)c2)C(=O)O1 ; strain: Isolate 301-6X ritonavir-resistant ; cell line: PBMC ; read-out: EC50 ; method: p24 ; result: 0.12 µM
N#CCn1ccc(=O)n(Cc2ccc(-c3ccccc3)cc2)c1=O ; strain: IIIB ; cell line: PBMC ; read-out: EC50 ; result: 58 µM
Nc1ccn([C@H]2CC[C@@H](CO)O2)c(=O)n1 ; strain: IIIB ; cell line: MT-4 ; read-out: EC50 ; mutations: ddI-2-resistant ; result: 0.66 µM
CCn1cc(C(=O)O)c(=O)c2cc(F)c(N3CCN(c4ccccc4OC)CC3)c(OC(F)F)c21 ; strain: HE ; cell line: MT-4 ; read-out: EC50 ; method: cytopathic effect / MTT ; result: 0.48 µM
CC(=O)CCCCn1c(=O)c2c(ncn2C)n(C)c1=O ; cell line: U1/HIV-1 + U1 ; read-out: EC50 ; method: p24 ; result: 1000 µM
CC(C)(C)NC(=O)[C@@H]1CN(Cc2cccnc2)CCN1C[C@H](C[C@@H](Cc1ccccc1)C(=O)N[C@H]1c2ccccc2C[C@H]1OC(=O)CCCCO[C@H]1O[C@H](CO)[C@@H](O)[C@H](O)[C@@H]1O)OC(=O)CCCCO[C@H]1O[C@H](CO)[C@@H](O)[C@H](O)[C@@H]1O ; strain: LAI ; cell line: CEM + CEM-SS ; read-out: EC50 ; method: RT activity ; result: 0.44 µM
Cc1cn([C@H]2C[C@H](N=[N+]=[N-])[C@@H](CO)O2)c(=O)[nH]c1=O ; cell line: MT-4 ; read-out: EC50 ; method: MTT ; mutations: L100I mutant ; result: 0.005 µM
Cc1cn([C@H]2C[C@H](N=[N+]=[N-])[C@@H](COC(=O)N3CCNCC3)O2)c(=O)[nH]c1=O ; strain: 899A ; cell line: MT-4 ; read-out: EC50 ; method: p24 / antigen / absorbance ; result: 20 µM
C=C1[C@H](CO)[C@@H](O)C[C@@H]1n1cnc2c(=O)[nH]c(N)nc21 ; strain: RES056 ; cell line: MT-4 ; read-out: EC50 ; method: MTT ; result: >0.025 µM
Nc1ccn([C@H]2CC[C@@H](CO)O2)c(=O)n1 ; strain: RF ; cell line: CEM + CEM-SS ; read-out: EC95 ; method: cytopathic effect / MTT ; result: 142 µM
O=C(C1CCCC1)N1C[C@H](N2CCC(N(CC3CC3)C(=O)OCc3ccc([N+](=O)[O-])cc3)CC2)[C@@](O)(c2ccccc2)C1 ; cell line: PBMC ; read-out: EC50 ; method: p24 / ELISA ; result: <0.05 µM
CC(C)(C)NC(=O)[C@@H]1C[C@@H]2CCCC[C@@H]2CN1C[C@@H](O)[C@H](Cc1ccccc1)NC(=O)[C@H](CC(N)=O)NC(=O)c1ccc2ccccc2n1 ; strain: IIIB ; cell line: MT-4 ; read-out: EC50 ; method: cytopathic effect / MTT ; result: 0.018 µM
CC(C)CN(C[C@@H](O)[C@H](Cc1ccccc1)NC(=O)[C@H](CC(N)=O)NC(=O)c1ccc2ccccc2n1)C(=O)NC(C)(C)C ; strain: NL4-3 ; cell line: MT-4 ; read-out: EC50 ; method: p24 ; result: <0.2 µM
Cc1cn([C@H]2C[C@H](N=[N+]=[N-])[C@@H](COC(=O)C3=CN(C)C=CC3)O2)c(=O)[nH]c1=O ; strain: 899A ; cell line: MT-4 ; read-out: EC50 ; method: p24 / ELISA ; result: 0.29 µM
C1CNCCNCCCNCCNC1 ; strain: IIIB ; cell line: MT-4 ; read-out: EC50 ; method: cytopathic effect / MTT ; setting: 4 d ; result: 420 µM
CC(C)(C)NC(=O)[C@@H]1C[C@@H]2CCCC[C@@H]2CN1C[C@@H](O)[C@H](Cc1ccccc1)NC(=O)[C@H](CC(N)=O)NC(=O)c1ccc2ccccc2n1 ; strain: NL4-3 ; cell line: MT-4 ; read-out: EC95 ; method: p24 ; mutations: PR-M46I L63P V82T ; result: 0.025 µM
C=CCN(C(=O)Cc1ccc(S(=O)(=O)NC)cc1)C1CCN(C[C@H]2CN(C(=O)C3CCCC3)C[C@]2(O)c2ccccc2)CC1 ; cell line: PBMC ; read-out: EC50 ; method: p24 ; result: <0.005 µM
CC(C)(C)NC(=O)[C@@H]1C[C@@H]2CCCC[C@@H]2CN1C[C@@H](OC(=O)CCCCO[C@H]1O[C@H](CO)[C@@H](O)[C@H](O)[C@@H]1O)[C@H](Cc1ccccc1)NC(=O)[C@H](CC(N)=O)NC(=O)c1ccc2ccccc2n1 ; strain: LAI ; cell line: CEM + CEM-SS ; read-out: EC50 ; method: RT activity ; result: 0.484 µM
COc1ccc2c(c1)c1c3c(c4c5ccccc5n(C)c4c1n2CCC#N)C(=O)NC3=O ; cell line: U1/HIV-1(+PMA) + U1 ; read-out: EC50 ; method: p24 ; result: 0.118 µM
C=CCN(C(=O)NCc1ccccc1)C1CCN([C@H]2CN(C(=O)C3CCCC3)C[C@]2(O)c2ccccc2)CC1 ; cell line: PBMC ; read-out: EC50 ; method: p24 / ELISA ; result: >0.1 µM
N#CCn1ccc(=O)n(Cc2cc(Cl)cc(Cl)c2)c1=O ; strain: IIIB ; cell line: PBMC ; read-out: EC50 ; result: 0.77 µM
C1CNCCNCC(CCOCCOCCC2CNCCNCCCNCCNC2)CNCCNC1 ; strain: RF ; cell line: MOLT-4 ; read-out: EC50 ; method: syncytia ; result: 105 µM
CC(C)(C)NC(=O)[C@@H]1C[C@@H]2CCCC[C@@H]2CN1C[C@@H](OC(=O)CCCCOc1ccc(C[C@H](N)C(=O)O)cc1)[C@H](Cc1ccccc1)NC(=O)[C@H](CC(N)=O)NC(=O)c1ccc2ccccc2n1 ; strain: IIIB ; cell line: MT-4 ; read-out: EC50 ; method: cytopathic effect / MTT ; result: 0.16 µM
Cc1cn([C@H]2C[C@H](N=[N+]=[N-])[C@@H](CO)O2)c(=O)[nH]c1=O ; strain: BaL ; cell line: Macrophage + Monocytes/macrophages ; read-out: EC50 ; method: p24 ; result: 0.06 µM
C=CCN(C(=O)NCc1ccc(C(F)(F)F)cc1)C1CCN(C[C@H]2CN(C(=O)c3ccco3)C[C@]2(O)c2ccccc2)CC1 ; cell line: PBMC ; read-out: EC50 ; method: p24 ; result: >0.1 µM
Cc1cn([C@@H]2C[C@H](COP(O)(=S)OCCCCCCN)[C@@H](OP(O)(=S)OC[C@H]3OCC[C@@H]3OP(O)(=S)OC[C@H]3OCC[C@@H]3OP(O)(=S)OC[C@H]3OCC[C@@H]3OP(O)(=S)OC[C@H]3OCC[C@@H]3OP(O)(=S)OC[C@H]3OCC[C@@H]3OP(O)(=S)OC[C@H]3OCC[C@@H]3OP(O)(=S)OC[C@H]3OCC[C@@H]3OP(O)(=S)OC[C@H]3OCC[C@@H]3OP(O)(O)=S)C2)c(=O)[nH]c1=O ; cell line: MAGI-CCR5 ; read-out: EC50 ; method: β-galactosidase / single cycle ; result: >1 µM
Cc1cccc(C)c1Cn1c(=O)ccn(CC#N)c1=O ; strain: IIIB ; cell line: PBMC ; read-out: EC50 ; result: 196 µM
O=C(CSc1nnnn1-c1ccc(Cl)c(Cl)c1)Nc1ccccc1[N+](=O)[O-] ; cell line: MT-4 ; read-out: EC95 ; method: p24 ; setting: 50% human serum ; result: >5 µM
Cc1cc(C)c(Nc2nc(NC3CCN(Cc4ccc(Br)cc4)CC3)nc3nc[nH]c23)c(C)c1 ; strain: IIIB ; cell line: MT-4 ; read-out: EC50 ; method: MTT ; result: >11.45 µM
CCc1cc(NCc2nc3c(Cl)ccc(Cl)c3o2)c(=O)[nH]c1C ; strain: DLV-resistant IIIB (RT-L100I) ; cell line: MT-4 ; read-out: EC90 ; method: p24 ; mutations: RT-L100I ; result: 4 µM

7 of the rows above, restated:

structure	strain	cell line	read-out	method	setting	mutations	result
CCNc1cccnc1N1CCN(C(=O)c2cc3cc(OC)ccc3[nH]2)CC1	BaL	PBMC	EC50	p24		RT-V106A	15.3 µM
Nc1ncnc2c1ncn2[C@@H]1CC(CO)(CO)CO1		MT-4	EC50				20.1 µg/mL
C=CCN(C(=O)NCc1ccc(F)cc1)C1CCN([C@H]2CN(C(=O)C3CCCC3)C[C@]2(O)c2ccccc2)CC1		PBMC	EC50	p24 / ELISA			<50 µM
C[C@@](O)(/C=C/[C@H]1CC=CC(=O)O1)[C@@H](C[C@@H](O)\C=C/C=C\C=C\CO)OP(=O)(O)O	RF	CEM + CEM-SS	EC50	cytopathic effect / XTT			>18 µM
C1CNCCNCCCN(CCCN2CCCNCCNCCCNCC2)CCNC1	NL4-3	MT-4	EC50	p24		gp120 F145L N269E Q278H I288V N293D FNSTW364-368 deletion	>25 µg/mL
Cc1cn([C@H]2C[C@H](N=[N+]=[N-])[C@@H](COC(=O)N3CCOCC3)O2)c(=O)[nH]c1=O	899A	MT-4	EC50	p24 / antigen / absorbance			35 µM
CCC[C@@]1(CCc2ccccc2)CC(O)=C([C@H](CC)c2cccc(NS(=O)(=O)c3ccc(C(F)(F)F)cn3)c2)C(=O)O1	Isolate 301-6X ritonavir-resistant	PBMC	EC50	p24			0.12 µM